Measurements: paper PMC6372279 (2019)

B1: Con-Ins G3 (ligand)
chain 1: GIVEVCCDNPCTVATLRTFCH
chain 2: NSDTPKHRCGSELADQYVQLCH
B2: Con-Ins T2 (ligand)
chain 1: GVVEHCCKRACSNAEFMQFC
chain 2: NSDTPWNRCGSQITDSYRELCPH
B3: Con-Ins G1 (ligand)
chain 1: GVVEHCCHRPCSNAEFKKYC
chain 2: TFDTPKHRCGSEITNSYMDLCYR

These binders were tested against human insulin receptor, B isoform (human, UniProt P06213 28-758; P06213 763-1382).

Q: With B1 as the binder, how does the IC50 read?
A: Its IC50 is 46.8 nM.

Q: For B2, which IC50 is on record?
A: Its IC50 is 31.8 nM.

Q: How did the IC50 turn out when B3 was run?
A: Its IC50 is 11 nM.
